Consider five molecules from publication PMC9104152, “Phosphoproteomics Unravel HBV Triggered Rewiring of Host Phosphosignaling Events” (International Journal of Molecular Sciences, 2022).

In the data set the test system is HepG2-NTCP cells. Kind of data set: TMT-based phosphoproteome profiling of HBV-infected vs mock HepG2-NTCP (HBV/mock ratio). Set-up: species or system human. As to conditions: phosphosite abundance ratio of host protein, HBV-infected vs mock HepG2-NTCP, 7dpi, sheet Up-regulated.

B1: Q99856 1xPhospho [S88(100)] (protein, UniProt Q99856 1-593, looked up)
AT-rich interactive …: MKLQAVMETLLQRQQRARQELEARQQLPPDPPAAPPGRARAAPDEDREPESARMQRAQMAALAAMRAAAAGLGHPASPGGSEDGPPGSEEEDAAREGTPGSPGRGREGPGEEHFEDMASDEDMKPKWEEEEMEEDLGEDEEEEEEDYEDEEEEEDEEGLGPPGPASLGTTALFPRKAQPPQAFRGDGVPRVLGGQERPGPGPAHPGGAAHVAPQLQPPDHGDWTYEEQFKQLYELDGDPKRKEFLDDLFSFMQKRGTPVNRIPIMAKQVLDLFMLYVLVTEKGGLVEVINKKLWREITKGLNLPTSITSAAFTLRTQYMKYLYPYECEKRGLSNPNELQAAIDSNRREGRRQSFGGSLFAYSPGGAHGMLSSPKLPVSSLGLAASTNGSSITPAPKIKKEEDSAIPITVPGRLPVSLAGHPVVAAQAAAVQAAAAQAAVAAQAAALEQLREKLESAEPPEKKMALVADEQQRLMQRALQQNFLAMAAQLPMSIRINSQASESRQDSAVNLTGTNGSNSISMSVEINGIMYTGVLFAQPPAPTPTSAPNKGGGGGGGSSSNAGGRGGNTGTSGGQAGPAGLSTPSTSTSNNSLP
modifications: phosphorylated S88
Regarding B1, the HBV/mock was found to be 2.073.

B2: Q96ST3 1xPhospho [S832(100)] (protein, UniProt Q96ST3 1-1273, looked up)
Paired amphipathic helix …: MKRRLDDQESPVYAAQQRRIPGSTEAFPHQHRVLAPAPPVYEAVSETMQSATGIQYSVTPSYQVSAMPQSSGSHGPAIAAVHSSHHHPTAVQPHGGQVVQSHAHPAPPVAPVQGQQQFQRLKVEDALSYLDQVKLQFGSQPQVYNDFLDIMKEFKSQSIDTPGVISRVSQLFKGHPDLIMGFNTFLPPGYKIEVQTNDMVNVTTPGQVHQIPTHGIQPQPQPPPQHPSQPSAQSAPAPAQPAPQPPPAKVSKPSQLQAHTPASQQTPPLPPYASPRSPPVQPHTPVTISLGTAPSLQNNQPVEFNHAINYVNKIKNRFQGQPDIYKAFLEILHTYQKEQRNAKEAGGNYTPALTEQEVYAQVARLFKNQEDLLSEFGQFLPDANSSVLLSKTTAEKVDSVRNDHGGTVKKPQLNNKPQRPSQNGCQIRRHPTGTTPPVKKKPKLLNLKDSSMADASKHGGGTESLFFDKVRKALRSAEAYENFLRCLVIFNQEVISRAELVQLVSPFLGKFPELFNWFKNFLGYKESVHLETYPKERATEGIAMEIDYASCKRLGSSYRALPKSYQQPKCTGRTPLCKEVLNDTWVSFPSWSEDSTFVSSKKTQYEEHIYRCEDERFELDVVLETNLATIRVLEAIQKKLSRLSAEEQAKFRLDNTLGGTSEVIHRKALQRIYADKAADIIDGLRKNPSIAVPIVLKRLKMKEEEWREAQRGFNKVWREQNEKYYLKSLDHQGINFKQNDTKVLRSKSLLNEIESIYDERQEQATEENAGVPVGPHLSLAYEDKQILEDAAALIIHHVKRQTGIQKEDKYKIKQIMHHFIPDLLFAQRGDLSDVEEEEEEEMDVDEATGAVKKHNGVGGSPPKSKLLFSNTAAQKLRGMDEVYNLFYVNNNWYIFMRLHQILCLRLLRICSQAERQIEEENREREWEREVLGIKRDKSDSPAIQLRLKEPMDVDVEDYYPAFLDMVRSLLDGNIDSSQYEDSLREMFTIHAYIAFTMDKLIQSIVRQLQHIVSDEICVQVTDLYLAENNNGATGGQLNTQNSRSLLESTYQRKAEQLMSDENCFKLMFIQSQGQVQLTIELLDTEEENSDDPVEAERWSDYVERYMNSDTTSPELREHLAQKPVFLPRNLRRIRKCQRGREQQEKEGKEGNSKKTMENVDSLDKLECRFKLNSYKMVYVIKSEDYMYRRTALLRAHQSHERVSKRLHQRFQAWVDKWTKEHVPREMAAETSKWLMGEGLEGLVPCTTTCDTETLHFVSINKYRVKYGTVFKAP
modifications: phosphorylated S832
On to B2, for which the HBV/mock was 1.4051.

B3: Q9UQE7 3xPhospho [S/Y] (protein, UniProt Q9UQE7 1-1217, looked up)
Structural maintenance of …: MYIKQVIIQGFRSYRDQTIVDPFSSKHNVIVGRNGSGKSNFFYAIQFVLSDEFSHLRPEQRLALLHEGTGPRVISAFVEIIFDNSDNRLPIDKEEVSLRRVIGAKKDQYFLDKKMVTKNDVMNLLESAGFSRSNPYYIVKQGKINQMATAPDSQRLKLLREVAGTRVYDERKEESISLMKETEGKREKINELLKYIEERLHTLEEEKEELAQYQKWDKMRRALEYTIYNQELNETRAKLDELSAKRETSGEKSRQLRDAQQDARDKMEDIERQVRELKTKISAMKEEKEQLSAERQEQIKQRTKLELKAKDLQDELAGNSEQRKRLLKERQKLLEKIEEKQKELAETEPKFNSVKEKEERGIARLAQATQERTDLYAKQGRGSQFTSKEERDKWIKKELKSLDQAINDKKRQIAAIHKDLEDTEANKEKNLEQYNKLDQDLNEVKARVEELDRKYYEVKNKKDELQSERNYLWREENAEQQALAAKREDLEKKQQLLRAATGKAILNGIDSINKVLDHFRRKGINQHVQNGYHGIVMNNFECEPAFYTCVEVTAGNRLFYHIVDSDEVSTKILMEFNKMNLPGEVTFLPLNKLDVRDTAYPETNDAIPMISKLRYNPRFDKAFKHVFGKTLICRSMEVSTQLARAFTMDCITLEGDQVSHRGALTGGYYDTRKSRLELQKDVRKAEEELGELEAKLNENLRRNIERINNEIDQLMNQMQQIETQQRKFKASRDSILSEMKMLKEKRQQSEKTFMPKQRSLQSLEASLHAMESTRESLKAELGTDLLSQLSLEDQKRVDALNDEIRQLQQENRQLLNERIKLEGIITRVETYLNENLRKRLDQVEQELNELRETEGGTVLTATTSELEAINKRVKDTMARSEDLDNSIDKTEAGIKELQKSMERWKNMEKEHMDAINHDTKELEKMTNRQGMLLKKKEECMKKIRELGSLPQEAFEKYQTLSLKQLFRKLEQCNTELKKYSHVNKKALDQFVNFSEQKEKLIKRQEELDRGYKSIMELMNVLELRKYEAIQLTFKQVSKNFSEVFQKLVPGGKATLVMKKGDVEGSQSQDEGEGSGESERGSGSQSSVPSVDQFTGVGIRVSFTGKQGEMREMQQLSGGQKSLVALALIFAIQKCDPAPFYLFDEIDQALDAQHRKAVSDMIMELAVHAQFITTTFRPELLESADKFYGVKFRNKVSHIDVITAEMAKDFVEDDTTHG
modifications: 3x phospho
As to B3, the HBV/mock is reported as 1.3548.

B4: Q8WUM9 2xPhospho [S265(100); S269(100)] (protein, UniProt Q8WUM9 1-679, looked up)
Sodium-dependent phosphate …: MATLITSTTAATAASGPLVDYLWMLILGFIIAFVLAFSVGANDVANSFGTAVGSGVVTLKQACILASIFETVGSVLLGAKVSETIRKGLIDVEMYNSTQGLLMAGSVSAMFGSAVWQLVASFLKLPISGTHCIVGATIGFSLVAKGQEGVKWSELIKIVMSWFVSPLLSGIMSGILFFLVRAFILHKADPVPNGLRALPVFYACTVGINLFSIMYTGAPLLGFDKLPLWGTILISVGCAVFCALIVWFFVCPRMKRKIEREIKCSPSESPLMEKKNSLKEDHEETKLSVGDIENKHPVSEVGPATVPLQAVVEERTVSFKLGDLEEAPERERLPSVDLKEETSIDSTVNGAVQLPNGNLVQFSQAVSNQINSSGHYQYHTVHKDSGLYKELLHKLHLAKVGDCMGDSGDKPLRRNNSYTSYTMAICGMPLDSFRAKEGEQKGEEMEKLTWPNADSKKRIRMDSYTSYCNAVSDLHSASEIDMSVKAEMGLGDRKGSNGSLEEWYDQDKPEVSLLFQFLQILTACFGSFAHGGNDVSNAIGPLVALYLVYDTGDVSSKVATPIWLLLYGGVGICVGLWVWGRRVIQTMGKDLTPITPSSGFSIELASALTVVIASNIGLPISTTHCKVGSVVSVGWLRSKKAVDWRLFRNIFMAWFVTVPISGVISAAIMAIFRYVILRM
modifications: phosphorylated S265, S269
As to B4, the HBV/mock amounted to 1.471.

B5: Q96QD8 1xPhospho [S/Y] (protein, UniProt Q96QD8 1-506, looked up)
Sodium-coupled neutral amino …: MKKAEMGRFSISPDEDSSSYSSNSDFNYSYPTKQAALKSHYADVDPENQNFLLESNLGKKKYETEFHPGTTSFGMSVFNLSNAIVGSGILGLSYAMANTGIALFIILLTFVSIFSLYSVHLLLKTANEGGSLLYEQLGYKAFGLVGKLAASGSITMQNIGAMSSYLFIVKYELPLVIQALTNIEDKTGLWYLNGNYLVLLVSLVVILPLSLFRNLGYLGYTSGLSLLCMVFFLIVVICKKFQVPCPVEAALIINETINTTLTQPTALVPALSHNVTENDSCRPHYFIFNSQTVYAVPILIFSFVCHPAVLPIYEELKDRSRRRMMNVSKISFFAMFLMYLLAALFGYLTFYEHVESELLHTYSSILGTDILLLIVRLAVLMAVTLTVPVVIFPIRSSVTHLLCASKDFSWWRHSLITVSILAFTNLLVIFVPTIRDIFGFIGASAASMLIFILPSAFYIKLVKKEPMKSVQKIGALFFLLSGVLVMTGSMALIVLDWVHNAPGGGH
modifications: phosphorylated
Regarding B5, the HBV/mock came out at 1.364.
